# Assay results from the supplement of paper PMC12637763.
# Residue numbers refer to the chain shown, from its start. The list shows a part of the results. Env chains of viruses from a treatment-interruption trial, translated from the printed DNA. IC50 / IC80 of two broadly neutralizing antibodies; lower = more sensitive virus; >50 µg/ml means not reached and <0.001 µg/ml is below the lowest dose. No active / inactive call.
# B1: HIV-1 Env, rebound clone, antibody arm (protein)
# chain: MKVKGTKRNYQHLWRWGIMLLGILMICSAADKFWVTVYYGVPVWKEASTTLFCASDAKAYDTEVHNVWATHACVPTDPNPQEIFLENVTEDFNMWENNMVEQMHEDVISLWDQSLKPCVKLTPLCVTLNCTDLKNVTESGNATATGGNNNRTVENEGEIKNCSFNITTSIRDKVTKEYALFNALDVVPIEDSNDNSSNGGNYSSYRMIHCNTSTITQACPKVSFEPIPIHYCTPAGFAILKCNNNTFSGKGPCNNVSTVQCTHGIRPVVSTQLLLNGSLAEEEIVIRSKNFSQNTDIIIVQLNESVIINCTRPNNNTRRGVHIGPGRAFYATGDIIGDIRRAYCNISRAEWNKTLGRVAEKLREQFPNKTIVFNQSSGGDPEIATHSFNCGGEFFYCYTSKLFNSTWNDTEGKVEEGDGNITFPCRIKQIINLWQEVGKAMYAPPISGIIKCESNITGLLLTRDGGNDNNTNEIFRPWGGNMKDNWRSELYKYKVVKIEPIGVAPTKAKRRVVQREKRAVGALGAMFPGFLGAAGSTMGAASLTLTVQARLLLSGIVQQQNNLLRAIEAQQHMLQLTVWGIKQLQARVLAVERYLRDQQLLGIWGCSGKLICTTAVPWNDSWSNNKTYDDIWENMTWMAWEKEIDNYTGIIYNLLEISQNQQEKNEQELLELDKWASLWNWFDITHWLWYIKIFIMIVGGLIGLRIVFTVLSIINRVRQGYSPLSFQTHLLTSRGPDRPEGIEEEGGEQDRGRSIRLVDGFLALFWDDLRSLCLFSYHRLRDLLLIAARIVELLGRRGWGILKYWWSLLQYWSQELNKSAISLLNATAIAVAEGTDRIIEVVQRAGRAILHIPVRIRQGLERALQ
# B2: HIV-1 Env, rebound clone, antibody arm (protein)
# chain: B1 chain with N201D, R515G, P528L
# B3: HIV-1 Env, rebound clone, antibody arm (protein)
# chain: B1 chain with N201D, Y398H, P528L
# B4: HIV-1 Env, rebound clone, antibody arm (protein)
# chain: B1 chain with M526V, P528L, E840K
# B5: HIV-1 Env, rebound clone, antibody arm (protein)
# chain: B1 chain with G200S, N201D, P528L
# B6: HIV-1 Env, rebound clone, antibody arm (protein)
# chain: B1 chain with N201D, R426K, P528L
# Target: antibody 10-1074
# Experiment: neutralization IC50; higher = virus less sensitive to the antibody
# Description: (§1)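 Pseudovirus bearing the Env chain mixed with antibody, from 50 µg/ml in fivefold dilutions, on TZM-bl reporter cells, in duplicate.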
row,Binder,neutralization IC50 [µg/mL]
1,B1,0.278
2,B2,0.064
3,B3,0.098
4,B4,0.186
5,B5,0.128
6,B6,0.072

# Target: antibody 3BNC117
# Experiment: as above
# Description: as §1
row,Binder,neutralization IC50 [µg/mL]
1,B1,> 50
2,B2,> 50
3,B3,> 50
4,B4,> 50
5,B5,> 50
6,B6,> 50

# Target: antibody 10-1074
# Experiment: neutralization IC80; higher = virus less sensitive to the antibody
# Description: as §1
row,Binder,neutralization IC80 [µg/mL]
1,B1,1.22
2,B2,0.325
3,B3,0.514
4,B4,1.24
5,B5,0.9
6,B6,0.366

# Target: antibody 3BNC117
# Experiment: as above
# Description: as §1
row,Binder,neutralization IC80 [µg/mL]
1,B1,> 50
2,B2,> 50
3,B3,> 50
4,B4,> 50
5,B5,> 50
6,B6,> 50
